From the supplement of paper PMC9931576
Human monoclonal antibodies against the spike receptor-binding domain (heavy:light variable regions). IC50 against pseudoviruses bearing the spike of naturally observed variants; lower = stronger; >10 µg/ml means not reached at the top dose. No active / inactive call. The stated detection limit is 0.0005 µg/ml; values near or below 0.001 µg/ml lie at the floor of the assay.

B1: BD57-0238 (protein)
chain 1: QLQLQESGPGLVKPSETLSLTCTVSGGSISSSSYYWAWIRQPPGKGLEWIGSIFHSGITYYNPSFKSRVTISVDTSKNNFSLKLSSVTAADMGVYYCARLVRGFGYYASGSYDQWGQGTLVAVSS
chain 2: QSALTQPASVSGSPGQSISISCTGTSSDIGSYNLVSWYQQHPGKAPKLMIYEDNKRPSGVSNRFSGSKSGNTASLTISGLQAEDEANYYCSSYVGSSTSLFGGGTKLTVL
B2: BD57-0227 (protein)
chain 1: QVQLVESGGGVVQPGRSLRLSCAASGFTFSSYAMHWVRQTPGKGLQWVAVISSDGSNTYYADSVKGRFTISRDNAKNTLFLEMNSLRAEDTAVYYCARDCPIAEHQMPEYCSGGSRYSFYFDSWGQGTLVTVSS
chain 2: SYVLTQPPSVSVPPGKTARFTCGGNNIGSRSVHWYQQKPGQAPMLVIYYDNDRPSGIPERFSGSNSGNTATLTISRVEAGDEADYYCQVWDSYTDHVIFGGGTKLTVL
B3: BD57-0233 (protein)
chain 1: QVQLVQSGGEVKKPGASVKVSCKASGYTFTSYGISWVRQAPGQGLEWMGWISAYNGNTNYAQSFQDRVTMTTDTSTSTVYMELRSLRSDDTAVYYCARVWDYYDSSVFQTQYYFDSWGQGTLVTVSS
chain 2: DIQMTQSPSSVSASVGDRVTITCRASQGISNWLAWYQQKPGKAPKLLIYAASSLQSGVPSRFSGSGSGTDFTLTISSLQPEDFATYYCQQGNSFPPIFTFGPGTKVDIK
B4: BD57-0260 (protein)
chain 1: QVLLVQSGTEVKKPGSSVRVSCKASGGIFRDNTINWVRQAPGHGLEWMGRIIPHPNLTDYVERLQDRLTIIADKATSTAYLELRSLRSEDTAVYYCASPLKRGYSGYDYFDYGMDVWGQGTTVIVSS
chain 2: DTQMTQSPSSLSASIGDRVTITCQANQDITNFLNWYQQKPGKAPRLLIYLASNMEKGVPSRFSGSGSGTDFTFTISSLQPEDVATYYCQQYDNLPLTFGGGTKVNIK
B5: BD57-0259 (protein)
chain 1: QVHLVQSGAEVKKPGSSVRVSCRASGGTFGTYAITWVRQAPGQGLEWMGGIIPMYGTTNYAQKFQGRVTITADESTNTAYMELNSLRFEDTAVYYCARDEPGYNNPSYYYYYMEVWGKGTTVTVSS
chain 2: ELVLTQSPGTLSLSPGERVTLTCRASQSVTNNYLAWYQHKPGQAPRLLIYGASSRATGIPPRFSGSGSGTDFTLSISRLETEDFAVYYCQQYGDSITFGQGTRLEIK
B6: BD57-0224 (protein)
chain 1: QVQLVESGGGVVQPGRSLRLSCAASGFTFSSSPLHWVRQAPGKGLEWVAFISYDGTNKYYADSVKGRFTVSRDNFKNTLYLEMNSLRAEDTAFYYCTRATGGEVFTLDAFDIWGQGTMVTVSS
chain 2: SYVLTQPPSVSVAPGKTATITCGGNSIGSKSVHWYQQKPGQSPVLVIYYDSDRPSGIPERFSGSNSGNTATLTISRVEAGDEADYYCQVWDIGVVFGGGTKLTVL
B7: BD57-0249 (protein)
chain 1: QVQLMQSGAEVKRPGASVKVSCKPSGHTFTNSYIHWVRQAHGQGLEWLGIINPSGGSTTYAQKFQGRVTMTSDTSTTTVYMELSRLRFEDTAVYYCARGGFIPDHRTAFDIWGQGTMVSVSS
chain 2: DIQMTQSPPTLSASVGDRVTITCRASQSIGNSLAWYQQRPGKAPNLLIYKASNLESGVPSRFSGSGSGTEFTLTISSLQPDDFATYYCQQYNTYYTFGQGTKLEIK
B8: BD57-0231 (protein)
chain 1: QVQLVQSGAEVKKPGASVKVSCQASGATFTIYGFHWVRQAPGQGLEWLGWMSTYNGNTDYGQKFQGRVTVTTDTSTSTAWMELRSLRSDDTAVYYCASQRHCGGETCYFENWGQGTLVTVSS
chain 2: DIVLTQSPGTLSLSPGERATLSCRASQSVSSTSLAWYQQKPGQAPRLLIYRASTRATGIPDRFSGSGSATDFTLIISRLEPEDFAVYYCHHYGTSPLTFGGGTTVEIK
B9: BD57-0239 (protein)
chain 1: QGQLVQSGAAVKKPGSSVKVSCKASGGTFSSYAISWVRQAPGQGLEWMGGIMPIYGTVNYAQTFQGRVTITADESTSTAYMELSSLRSEDTAVYYCARDFGDIPTRLSYAYYMDVWGQGTSVTVPS
chain 2: QSALAQPASVSGSPGQSITISCTGTSSDVGGYNFVSWYQQHPGKAPKLMIFDVNNRPSGVSNRFSGSKSGNTASLTISGLQAEDEADYYCSSYTSSSTPYVFGSGTKVTVL
B10: BD57-0225 (protein)
chain 1: QVQLMQSGAAVKKPGSSVKVSCKASGGTFLTYAINWVRQAPGQGLEWMGRIIPIVGRGDYAQKFQGRVTITADKSTSTVFMEVSTLRPEDTAVYYCARVKENIAVVPAEEPDAFDTWGQGTMVTVSS
chain 2: DIVMTQSPDSLAVFLGERATINCKSSQSVLHNFNNKNHLAWYQQKPGQPPKLLIYWASTRESGVPDRFSGSGSGTDFTLTINSLQAEDAAVYYCQQYYSPPMYTFGQGTKLEIK
B11: BD57-0232 (protein)
chain 1: QVQLAQSGAEVKKPGSSVKVSCKASGGTFSNYPIGWVRQAPGHGLEWMGSIIPIVGIANYAQNFEGRVTLTADKSTSTAYMELSSLRSEDTALYYCARSLGYSGYGAASYFDPWGQGTLVTVSS
chain 2: QSVLTQPPSVSGAPGQRVTISCTGSNSNIGAGYDVHWYQLLPGTAPKLLIYVNSNRPSGVPDRFSGSKSGTSASLAITGLQAEDEADYYCQSYDSSLSGSIFGGGTRLTVL
B12: BD57-0255 (protein)
chain 1: QLQLQESGPRLAKPLETLSLTCTVSGGSISSRNYYWNWIRQAPGKGLEWIGSVYDSGTYYNPSLKSPVAISVDTSKNQFSLKLNSVTAADTAVYYCAVQLWLRGNMDVWGQGTTVTVSS
chain 2: NLMLTQPHSVSESPGKTVVISCTGSGGYIGNNYVQWYQQRPGSAPTTVIYEDNQRPSGVPDRFSGSIDSSSNSASLTISGLRTEDEADYYCQSYDINTHVVFGGGTKLTVL

Each binder was assayed against SARS-CoV-2 Omicron BA.1 spike pseudovirus (assay: pseudovirus neutralization IC50; higher = weaker neutralization).
Description: (§1)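 Single-round VSV luciferase pseudovirus mixed with antibody dilutions for 1 h and put on Huh-7 cells for about a day; IC50 from the dose curve.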
For B1, the “pseudovirus neutralization IC50” value was > 10 µg/mL. B2 was tested, and the “pseudovirus neutralization IC50” value was > 10 µg/mL. B3 was tested, and the “pseudovirus neutralization IC50” value was 2.71 µg/mL. For B4, the “pseudovirus neutralization IC50” value was 0.384 µg/mL. B5 was tested, and the “pseudovirus neutralization IC50” value was 0.598 µg/mL. In the case of B6, the “pseudovirus neutralization IC50” value is reported as > 10 µg/mL. In the case of B7, the “pseudovirus neutralization IC50” value is reported as 2.68 µg/mL. With B8 the “pseudovirus neutralization IC50” value was > 10 µg/mL. B9 was tested, and the “pseudovirus neutralization IC50” value was 0.0368 µg/mL. B10 was tested, and the “pseudovirus neutralization IC50” value was 0.000831 µg/mL. For B11, the “pseudovirus neutralization IC50” value was 0.0624 µg/mL. For B12, the “pseudovirus neutralization IC50” value was > 10 µg/mL.

What follows are binders tested against SARS-CoV-2 Omicron BA.2 spike pseudovirus in the same assay as above.
Description: as §1
With B1 the “pseudovirus neutralization IC50” value was > 10 µg/mL. For B2, the “pseudovirus neutralization IC50” value was > 10 µg/mL. For B3, the “pseudovirus neutralization IC50” value was 1.99 µg/mL. With B4 the “pseudovirus neutralization IC50” value was > 10 µg/mL. B5 was tested, and the “pseudovirus neutralization IC50” value was 0.309 µg/mL. For B6, the “pseudovirus neutralization IC50” value was > 10 µg/mL. For B7, the “pseudovirus neutralization IC50” value was 4.72 µg/mL. With B8 the “pseudovirus neutralization IC50” value was > 10 µg/mL. In the case of B9, the “pseudovirus neutralization IC50” value is reported as 0.0247 µg/mL. In the case of B10, the “pseudovirus neutralization IC50” value is reported as 0.0013 µg/mL. With B11 the “pseudovirus neutralization IC50” value was 0.0305 µg/mL. B12 was tested, and the “pseudovirus neutralization IC50” value was 2.86 µg/mL.

Each binder was assayed against SARS-CoV-2 Omicron BA.2.75 spike pseudovirus in the same assay as above.
Description: as §1
With B1 the “pseudovirus neutralization IC50” value was > 10 µg/mL. For B2, the “pseudovirus neutralization IC50” value was > 10 µg/mL. With B3 the “pseudovirus neutralization IC50” value was 3.92 µg/mL. In the case of B4, the “pseudovirus neutralization IC50” value is reported as > 10 µg/mL. With B5 the “pseudovirus neutralization IC50” value was 0.489 µg/mL. In the case of B6, the “pseudovirus neutralization IC50” value is reported as > 10 µg/mL. B7 was tested, and the “pseudovirus neutralization IC50” value was 6.06 µg/mL. In the case of B8, the “pseudovirus neutralization IC50” value is reported as 0.167 µg/mL. In the case of B9, the “pseudovirus neutralization IC50” value is reported as 0.0196 µg/mL. In the case of B10, the “pseudovirus neutralization IC50” value is reported as 0.000762 µg/mL. For B11, the “pseudovirus neutralization IC50” value was 0.0157 µg/mL. With B12 the “pseudovirus neutralization IC50” value was 3.28 µg/mL.

What follows are binders tested against SARS-CoV-2 Omicron BA.5 spike pseudovirus in the same assay as above.
Description: as §1
With B1 the “pseudovirus neutralization IC50” value was > 10 µg/mL. In the case of B2, the “pseudovirus neutralization IC50” value is reported as > 10 µg/mL. B3 was tested, and the “pseudovirus neutralization IC50” value was 3.3 µg/mL. In the case of B4, the “pseudovirus neutralization IC50” value is reported as > 10 µg/mL. With B5 the “pseudovirus neutralization IC50” value was 0.0918 µg/mL. For B6, the “pseudovirus neutralization IC50” value was > 10 µg/mL. In the case of B7, the “pseudovirus neutralization IC50” value is reported as 6.8 µg/mL. With B8 the “pseudovirus neutralization IC50” value was 0.407 µg/mL. With B9 the “pseudovirus neutralization IC50” value was 0.0351 µg/mL. In the case of B10, the “pseudovirus neutralization IC50” value is reported as 0.00232 µg/mL. For B11, the “pseudovirus neutralization IC50” value was 0.429 µg/mL. In the case of B12, the “pseudovirus neutralization IC50” value is reported as 2.41 µg/mL.

What follows are binders tested against SARS-CoV-2 Omicron BQ.1.1 spike pseudovirus in the same assay as above.
Description: as §1
With B1 the “pseudovirus neutralization IC50” value was > 10 µg/mL. B2 was tested, and the “pseudovirus neutralization IC50” value was > 10 µg/mL. B3 was tested, and the “pseudovirus neutralization IC50” value was 2.5 µg/mL. For B4, the “pseudovirus neutralization IC50” value was > 10 µg/mL. B5 was tested, and the “pseudovirus neutralization IC50” value was > 10 µg/mL. In the case of B6, the “pseudovirus neutralization IC50” value is reported as > 10 µg/mL. For B7, the “pseudovirus neutralization IC50” value was 8.81 µg/mL. B8 was tested, and the “pseudovirus neutralization IC50” value was 0.379 µg/mL. In the case of B9, the “pseudovirus neutralization IC50” value is reported as > 10 µg/mL. With B10 the “pseudovirus neutralization IC50” value was > 10 µg/mL. For B11, the “pseudovirus neutralization IC50” value was 3.12 µg/mL. With B12 the “pseudovirus neutralization IC50” value was 3.28 µg/mL.

The binders below were run against SARS-CoV-2 Omicron XBB spike pseudovirus in the same assay as above.
Description: as §1
In the case of B1, the “pseudovirus neutralization IC50” value is reported as > 10 µg/mL. With B2 the “pseudovirus neutralization IC50” value was > 10 µg/mL. B3 was tested, and the “pseudovirus neutralization IC50” value was 2.72 µg/mL. B4 was tested, and the “pseudovirus neutralization IC50” value was > 10 µg/mL. For B5, the “pseudovirus neutralization IC50” value was > 10 µg/mL. With B6 the “pseudovirus neutralization IC50” value was > 10 µg/mL. In the case of B7, the “pseudovirus neutralization IC50” value is reported as 8.26 µg/mL. For B8, the “pseudovirus neutralization IC50” value was 2.28 µg/mL. In the case of B9, the “pseudovirus neutralization IC50” value is reported as 3.06 µg/mL. In the case of B10, the “pseudovirus neutralization IC50” value is reported as 0.333 µg/mL. With B11 the “pseudovirus neutralization IC50” value was 0.954 µg/mL. For B12, the “pseudovirus neutralization IC50” value was 3.19 µg/mL.

What follows are binders tested against SARS-CoV-2 early D614G spike pseudovirus in the same assay as above.
Description: as §1
For B1, the “pseudovirus neutralization IC50” value was > 10 µg/mL. B2 was tested, and the “pseudovirus neutralization IC50” value was > 10 µg/mL. B3 was tested, and the “pseudovirus neutralization IC50” value was > 10 µg/mL. With B4 the “pseudovirus neutralization IC50” value was 0.0164 µg/mL. For B5, the “pseudovirus neutralization IC50” value was 0.21 µg/mL. For B6, the “pseudovirus neutralization IC50” value was > 10 µg/mL. In the case of B7, the “pseudovirus neutralization IC50” value is reported as > 10 µg/mL. B8 was tested, and the “pseudovirus neutralization IC50” value was 0.00123 µg/mL. For B9, the “pseudovirus neutralization IC50” value was 0.00623 µg/mL. For B10, the “pseudovirus neutralization IC50” value was 0.000429 µg/mL. For B11, the “pseudovirus neutralization IC50” value was 0.246 µg/mL. For B12, the “pseudovirus neutralization IC50” value was 0.183 µg/mL.
